Results from article PMC5336307.
For at least one entry, the source does not settle the construct or the ends of the probe. At least one verdict was read from the data and is not stated in words by the source.

How the values were obtained:
Test in all cases: ITC
p15NC-SP2-p6 = p15NC-SP2-p6 (UniProt P12493); details: ITC at 30 C in TBS with 1 mM TCEP (pH not stated); 8 uM (6-10) protein in cell, 40 uM (15-50) nucleic acid in syringe; one-site model; recombinant protein; protein details: C-terminal His
p7NC = p7NC (UniProt P12493); details: ITC at 30 C in TBS with 1 mM TCEP (pH not stated); 8 uM (6-10) protein in cell, 40 uM (15-50) nucleic acid in syringe; one-site model; recombinant protein; protein details: C-terminal His
Pr50GagΔp6 = Pr50GagΔp6 (UniProt P12493); details: ITC at 30 C in TBS with 1 mM TCEP (pH not stated); 8 uM (6-10) protein in cell, 40 uM (15-50) nucleic acid in syringe; one-site model; recombinant protein; protein details: C-terminal His
Pr55Gag = Pr55Gag (UniProt P12493); details: ITC at 30 C in TBS with 1 mM TCEP (pH not stated); 8 uM (6-10) protein in cell, 40 uM (15-50) nucleic acid in syringe; one-site model; recombinant protein; residues 1-500; protein details: C-terminal His

Measured: binding result

AAGGAAAGGAAAGGAAAGGA [4x 5'-AAGGA-3' (A-containing)]
binds: p15NC-SP2-p6 | p7NC | Pr50GagΔp6

GAGAAGAGAAGAGAAGAGAA [4x 5'-GAGAA-3' (A-containing)]
binds: p15NC-SP2-p6 | p7NC

UGUGGUGUGGUGUGGUGUGG [4x 5'-UGUGG-3' (GU-containing)]
binds: all assays above
